Patent US9187523B2 (priority 2006, dated 2015)

What was measured:
[1] = molecular target: T1, purified Pla (Yersinia pestis, UniProt P17811, INS56GHHHHHH); conditions: pre-incubation with purified Pla, spotted on fibrin film
[2] = molecular target: T1, purified Pla
[3] = molecular target: purified recombinant plague plasminogen activator (Pla) (Yersinia pestis, UniProt P17811, INS56GHHHHHH)
[4] = molecular target: Pla expressed on the surface of Y. pestis (Yersinia pestis, UniProt P17811); test: Fluorimetric assay with Y. pestis cells expressing Pla on their surface

NCCNc1cccc2c(S(=O)(=O)O)cccc12
inhibition of Pla-mediated fibrinolysis (inhibitory activity) [1]: did not inhibit

CN(C)c1ccc(N=Nc2ccc(C(=O)O)cc2)cc1
inhibition of Pla-mediated fibrinolysis (inhibitory activity) [1]: did not inhibit

CC[C@H](C)[C@H](NC(=O)[C@H](CCCNC(=N)N)NC(=O)[C@H](CCCNC(=N)N)NC(=O)c1ccc(N=Nc2ccc(N(C)C)cc2)cc1)C(=O)N[C@@H](CC(N)=O)C(=O)N[C@@H](CCCNC(=N)N)C(=O)N[C@@H](CCC(=O)NCCNc1cccc2c(S(=O)(=O)O)cccc12)C(N)=O [DABCYL-Arg-Arg-Ile-Asn-Arg-Glu-(EDANS)-NH2]
site of cleavage by Pla ([2]; LC-MS): between two arginines | inhibition of Pla-mediated fibrinolysis (inhibitory activity) [1]: concentration-dependent inhibition | time to plateau of substrate cleavage ([3]; purified Pla): about 60 min | time to plateau of substrate cleavage ([4]; cell-associated Pla): about 60 min | inhibition of Pla expressed on the surface of Y. pestis ([4]; high concentrations of the substrate): inhibited

DABCYL-Arg-Arg-OH
cleavage by Pla (LC-MS) of truncated peptides without EDANS ([2]; peptides with DABCYL, lacking EDANS): all, except the shortest peptide DABCYL-Arg-Arg-OH were cleaved

DABCYL-Arg-Arg-Ile-(EDANS)-NH2
inhibition of Pla-mediated fibrinolysis (inhibitory activity) [1]: activity maintained | substrate and inhibitory properties compared with the hexamer substrate ([3]; kinetic characterization, fluorimetric and functional fibrinolytic assays): substrate properties similar to those of the hexapeptide
